Test results: PubChem BioAssay AID1556 (The Scripps Research Institute Molecular Screening Center, 2009)
This is a selection; strong and weak results do not stand in their true shares. Calls of active or inactive are those of the source.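 The calls were made as follows: active = inhibition above the mean plus 3 SD of all compounds in the same screening run (cut at about 4.5% in these data); inactive = the rest.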

The compounds below were run on metallo-beta-lactamase IMP-1 (Pseudomonas aeruginosa) (assay: inhibition of IMP-1 nitrocefin hydrolysis – biochemical, epi-absorbance readout, Pseudomonas aeruginosa enzyme, primary screen (AID 1556;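 also: 0% = IMP-1 with DMSO and 100% = DMSO wells lacking enzyme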)). Details: purified IMP-1, nitrocefin hydrolysis, epi-absorbance fluorescence; at 5.6 µM; active compounds read high.
Summary of the method: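 Test system: recombinant IMP-1 enzyme, purified / Medium: HEPES buffer pH 7.1 with ZnSO4 and Brij 35 / Doses: single dose, 5.6 µM / Times: 25 °C, 15 min preincubation, 25 min reaction / Detection: Epi-absorbance via hydrolysed-nitrocefin quenching of white-plate fluorescence, 480/530 nm, EDTA stop / Evaluation: percent inhibition from optical density relative to buffer-blank wells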

Question: `COc1cc(OC)c(C(=O)NCC2(N(C)C)CCCCC2)cc1OC` was tested. Which inhibition did it give?
Answer: Its inhibition is inactive: -1.66%.

Question: With `CN(C)c1cccc(C(=O)NCC2(N3CCCCC3)CCCCC2)c1` as the compound, how does the inhibition read?
Answer: Its inhibition is inactive: 0.94%.

Question: Which inhibition does the source give for `COc1ccc(CN(CCCl)CCCl)cc1Cl` here?
Answer: Its inhibition is inactive: -1.97%.

Question: With `CC(C)c1ccc(NC2CCN(C(=O)OC(C)(C)C)CC2)cc1` as the compound, how does the inhibition read?
Answer: Its inhibition is inactive: -2.04%.

Question: Which inhibition does the source give for `CCCOc1ccc(C(=O)NCC2(N(C)C)CCCCC2)cc1OC` here?
Answer: The inhibition was inactive: -3.94%.

Question: Which inhibition does the source give for `CN1CCC(Nc2cccc(F)c2)CC1` here?
Answer: Its inhibition is inactive: 0.44%.

Question: With `O=C(NCC1(N2CCCCC2)CCCCC1)c1cccc([N+](=O)[O-])c1` as the compound, how does the inhibition read?
Answer: The inhibition was inactive: -3.86%.

Question: `N#CC1(Nc2ccccc2)CCN(CCc2ccccc2)CC1` was tested. Which inhibition did it give?
Answer: The inhibition was inactive: -2.06%.

Question: `CCN1CCC(Nc2ccc(Cl)cc2)CC1` was tested. Which inhibition did it give?
Answer: The inhibition was inactive: -0.39%.

Question: Which inhibition does the source give for `O=C(NCC1(N2CCCCC2)CCCCC1)c1ccc(OC(F)F)cc1` here?
Answer: The inhibition was inactive: -1.05%.

Question: For `COc1ccc(NC2CCN(C(=O)OC(C)(C)C)CC2)cc1`, which inhibition is on record?
Answer: Its inhibition is inactive: 0.05%.

Question: `CN1CCN(CCOC(=O)C(O)(c2ccccc2)c2ccccc2)CC1` was tested. Which inhibition did it give?
Answer: The inhibition was inactive: -2.43%.

Question: `O=C(NCC1(N2CCOCC2)CCCCC1)c1cc(=O)[nH]c2ccccc12` was tested. Which inhibition did it give?
Answer: Its inhibition is inactive: -2.52%.

Question: For `COc1cc(C(=O)NCC2(N3CCCCC3)CCCCC2)ccc1OC(F)F`, which inhibition is on record?
Answer: The inhibition was inactive: -4.83%.

Question: `O=C(NCC1(N2CCCCC2)CCCCC1)c1cccc(C(F)(F)F)c1` was tested. Which inhibition did it give?
Answer: The inhibition was inactive: -3.27%.

Question: Which inhibition does the source give for `CCOC(=O)N1CCC(Nc2ccc(F)cc2)CC1` here?
Answer: The inhibition was inactive: -4.15%.

Question: With `COc1ccc(NC2CCN(CCc3ccccc3)CC2)c(OC)c1` as the compound, how does the inhibition read?
Answer: The inhibition was inactive: -3.77%.

Question: With `O=C(NCC1(N2CCCCC2)CCCCC1)c1ccc(F)cc1` as the compound, how does the inhibition read?
Answer: Its inhibition is inactive: -1.94%.

Question: For `CCOc1ccc(C)cc1CN(CCCl)CCCl`, which inhibition is on record?
Answer: Its inhibition is inactive: -3.78%.

Question: With `Cc1ccc(OCC(C)C)c(CN(CCCl)CCCl)c1` as the compound, how does the inhibition read?
Answer: The inhibition was inactive: -5.84%.

Question: With `CCOC(=O)N1CCC(Nc2cccc(C)c2)CC1` as the compound, how does the inhibition read?
Answer: The inhibition was inactive: -0.76%.

Question: How did the inhibition turn out when `COc1cc(C(=O)NCC2(N(C)C)CCCCC2)ccc1OC(F)F` was run?
Answer: Its inhibition is inactive: -2.36%.

Question: With `CSc1ccccc1C(=O)NCC1(N2CCCCC2)CCCCC1` as the compound, how does the inhibition read?
Answer: Its inhibition is inactive: -2.68%.

Question: `O=C(NCC1(N2CCCCC2)CCCCC1)c1ccc(=O)[nH]c1` was tested. Which inhibition did it give?
Answer: Its inhibition is inactive: -3.79%.

Question: How did the inhibition turn out when `CC(C)(C)OC(=O)N1CCC(N(C(=O)c2ccccc2)c2ccc(F)cc2)CC1` was run?
Answer: Its inhibition is inactive: -3.13%.

Question: `COc1ccc(C(=O)NCC2(N3CCCCC3)CCCCC2)c(OC)c1OC` was tested. Which inhibition did it give?
Answer: Its inhibition is inactive: -1.58%.

Question: For `COc1ccc(C(=O)NCC2(N3CCCCC3)CCCCC2)cc1`, which inhibition is on record?
Answer: Its inhibition is inactive: -3.02%.

Question: For `CCOC(=O)N1CCC(Nc2ccc(OC)cc2)CC1`, which inhibition is on record?
Answer: Its inhibition is inactive: -4.34%.

Question: For `N#CC1(Nc2ccccc2)CCN(Cc2ccccc2)CC1`, which inhibition is on record?
Answer: The inhibition was inactive: -4.1%.

Question: `O=C(OC1CN2CCC1CC2)C1c2ccccc2Oc2ccccc21` (centres undefined) was tested. Which inhibition did it give?
Answer: The inhibition was inactive: -1.44%.

Question: Which inhibition does the source give for `O=C(NCC1(N2CCOCC2)CCCCC1)c1cc2ccccc2o1` here?
Answer: The inhibition was inactive: -1.76%.

Question: Which inhibition does the source give for `Cc1cc(C)cc(N(C(=O)c2ccccc2)C2CCN(C(=O)OC(C)(C)C)CC2)c1` here?
Answer: The inhibition was inactive: -1.85%.

Question: How did the inhibition turn out when `CCCOc1ccc(C(=O)NCC2(N(C)C)CCCCC2)cc1` was run?
Answer: Its inhibition is inactive: -1.97%.

Question: With `O=C(O)C1(Nc2ccccc2)CCN(Cc2ccccc2)CC1` as the compound, how does the inhibition read?
Answer: The inhibition was inactive: -1.04%.

Question: Which inhibition does the source give for `CC(C)(C)OC(=O)N1CCC(Nc2ccccc2)CC1` here?
Answer: Its inhibition is inactive: -3.94%.

Question: With `CN1CCC(Nc2ccc(F)c(Cl)c2)CC1` as the compound, how does the inhibition read?
Answer: Its inhibition is inactive: -0.22%.

Question: `CCOc1ncccc1C(=O)NCC1(N2CCOCC2)CCCCC1` was tested. Which inhibition did it give?
Answer: Its inhibition is inactive: -2.85%.

Question: `CCCOc1ccc(C)cc1CN(CCCl)CCCl` was tested. Which inhibition did it give?
Answer: Its inhibition is inactive: -3.85%.

Question: With `CN1CCC(Nc2ccc(Cl)cc2)CC1` as the compound, how does the inhibition read?
Answer: Its inhibition is inactive: -2.36%.

Question: `CCC(CO)(C(=O)OC1CN2CCC1CC2)c1ccccc1` (centres undefined) was tested. Which inhibition did it give?
Answer: Its inhibition is inactive: 0.07%.

Question: Which inhibition does the source give for `COc1cccc(C(=O)N(c2cc(C)cc(C)c2)C2CCN(C(=O)OC(C)(C)C)CC2)c1` here?
Answer: The inhibition was inactive: -2.02%.

Question: For `COc1cc(OC)cc(C(=O)NCC2(N3CCOCC3)CCCCC2)c1`, which inhibition is on record?
Answer: The inhibition was inactive: -2.6%.

Question: `COc1cc(OC)cc(C(=O)NCC2(N3CCCCC3)CCCCC2)c1` was tested. Which inhibition did it give?
Answer: The inhibition was inactive: -3.14%.

Question: How did the inhibition turn out when `CN(C)c1ccc(C(=O)NCC2(N3CCCCC3)CCCCC2)cc1` was run?
Answer: The inhibition was inactive: -1%.

Question: How did the inhibition turn out when `CCN1CCC(Nc2cccc(F)c2)CC1` was run?
Answer: The inhibition was inactive: -2.73%.

Question: How did the inhibition turn out when `CC(C)(C)OC(=O)N1CCC(N(C(=O)c2ccccc2)c2ccc(Cl)cc2)CC1` was run?
Answer: The inhibition was inactive: -4.17%.

Question: For `N#Cc1ccc(C(=O)NCC2(N3CCCCC3)CCCCC2)cc1`, which inhibition is on record?
Answer: Its inhibition is inactive: -2.19%.

Question: For `CCCN1CCC(Nc2cc(OC)cc(OC)c2)CC1`, which inhibition is on record?
Answer: Its inhibition is inactive: 0.88%.

Question: `c1ccc(CN2CCC(Nc3ccccc3)CC2)cc1` was tested. Which inhibition did it give?
Answer: The inhibition was inactive: -3.15%.

Question: Which inhibition does the source give for `CN(C)C1(CNC(=O)c2cccc(C#N)c2)CCCCC1` here?
Answer: Its inhibition is inactive: -1.68%.

Question: For `COc1ccc(C(=O)NCC2(N3CCOCC3)CCCCC2)cc1OC`, which inhibition is on record?
Answer: The inhibition was inactive: -3.17%.

Question: Which inhibition does the source give for `O=C(OC1CN2CCC1CC2)C1c2ccccc2C=Cc2ccccc21` (centres undefined) here?
Answer: Its inhibition is inactive: -0.74%.

Question: With `N/C(=N\O)c1c(N)no[n+]1[O-]` as the compound, how does the inhibition read?
Answer: The inhibition was inactive: -5.18%.

Question: With `CCOC(=O)N1CCC(Nc2ccc(C)cc2)CC1` as the compound, how does the inhibition read?
Answer: The inhibition was inactive: -3.12%.
